In publication PMC11021369, “Resolving the polycistronic aftermath: Essential role of topoisomerase IA in preventing R-loops in Leishmania” (The Journal of Biological Chemistry, 2024):
The exact form of at least one protein or probe is not confirmed. Weaker means in comparison with the reference protein, sequence or condition of that experiment. Protein sequences can lack the tags named with them.

Target: T1, LdTOPIA (DNA topoisomerase IA) (Leishmania donovani DD8) (UniProt A0A3S7WW83)
T1 sequence (looked up): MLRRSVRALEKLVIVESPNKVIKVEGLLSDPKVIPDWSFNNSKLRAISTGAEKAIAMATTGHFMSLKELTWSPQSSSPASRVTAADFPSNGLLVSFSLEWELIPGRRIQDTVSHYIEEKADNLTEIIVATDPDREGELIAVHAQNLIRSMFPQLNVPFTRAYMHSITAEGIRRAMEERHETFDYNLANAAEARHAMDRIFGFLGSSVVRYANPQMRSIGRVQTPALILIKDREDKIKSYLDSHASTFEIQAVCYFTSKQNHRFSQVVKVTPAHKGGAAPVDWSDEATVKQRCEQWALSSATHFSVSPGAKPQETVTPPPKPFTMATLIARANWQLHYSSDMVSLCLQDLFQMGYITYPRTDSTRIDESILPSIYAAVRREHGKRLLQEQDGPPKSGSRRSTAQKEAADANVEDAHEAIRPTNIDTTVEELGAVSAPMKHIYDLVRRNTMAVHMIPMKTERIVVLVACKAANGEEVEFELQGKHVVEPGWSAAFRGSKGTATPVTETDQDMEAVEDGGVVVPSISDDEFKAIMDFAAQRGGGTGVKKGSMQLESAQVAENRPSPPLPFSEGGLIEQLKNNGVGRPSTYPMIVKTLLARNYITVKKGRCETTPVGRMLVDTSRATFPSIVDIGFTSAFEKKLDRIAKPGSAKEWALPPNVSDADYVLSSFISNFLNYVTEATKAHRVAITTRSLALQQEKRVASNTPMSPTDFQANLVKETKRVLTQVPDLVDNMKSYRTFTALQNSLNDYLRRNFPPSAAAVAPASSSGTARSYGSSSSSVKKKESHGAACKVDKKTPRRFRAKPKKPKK
Assay: EMSA
Details: 100 nM DNA, 5-200 nM protein, 0.5 mM EDTA, 50 mM Tris pH 7.5, 100 mM NaCl, 0.5 mM DTT, 5% glycerol, 15 min, 25 °C (EMSA gel at 4 °C), recombinant protein, residues 1-809, protein details: N-term 7xHis, C-term 6xHis, label: 5' 32P

TATTGGGCGCTCTTCCGCTTCCTCGCTCACTG (double strand) [32-bp dsDNA, 32P]
binding result: binds more weakly
